The entries are a selection whose mix differs from that of the whole data set. The source made the active and inactive calls. No stated cut-off is given here; in the data, active means inhibition above about 25% (passing the limit was not always enough); inactive means the rest.
These molecules were tested on replicative DNA helicase (DnaC/DnaB), Staphylococcus aureus (assay: S. aureus DnaC helicase unwinding inhibition – biochemical, fluorescence unwinding readout, primary screen (AID 485395;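 further: 0% = mean of negative control wells and 100% = mean of positive control wells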)). Details: purified S. aureus helicase, fluorescence unwinding assay; stronger effect = higher value; concentration not given here.

Row | Compound | inhibition
1 | Cn1nc(C(=O)NCC2(N3CCCCC3)CCCCC2)c2ccccc2c1=O | inactive: -1%
2 | CC(C)(C)OC(=O)N1CCC(Nc2ccc(OC(F)(F)F)cc2)CC1 | inactive: -15%
3 | FC(F)(F)Oc1ccc(NC2CCNCC2)cc1 | inactive: 0%
4 | NC(=O)C1(Nc2ccc(F)cc2)CCNCC1 | inactive: 1%
5 | c1ccc(CN2CCC(Nc3ccc4c(c3)OCO4)CC2)cc1 | inactive: 4%
6 | Cc1ccc(C(=O)NCC2(N(C)C)CCCCC2)o1 | inactive: -6%
7 | CCCN1CCC(Nc2ccc(OC)c(OC)c2)CC1 | inactive: 5%
8 | COc1ccc(C(=O)NCC2(N3CCCCC3)CCCCC2)cc1 | inactive: 6%
9 | N#CC1(Nc2ccccc2)CCN(Cc2ccccc2)CC1 | inactive: -4%
10 | Cc1cnc(C(=O)NCC2(N3CCCCC3)CCCCC2)cn1 | inactive: -5%
11 | CC1CN(CCc2ccccc2)CCC1=O (centres undefined) | inactive: 6%
12 | O=C1CCN(Cc2ccccc2)CC1 | inactive: 8%
13 | O=C(NCC1(N2CCOCC2)CCCCC1)c1ccc2nc[nH]c2c1 | inactive: -21%
14 | CCOC(=O)N1CCC(Nc2ccc(F)cc2)CC1 | inactive: 9%
15 | CCOC(=O)N1CCC(Nc2cccc(C)c2)CC1 | inactive: 3%
16 | CC1CN(Cc2ccccc2)CCC1=O (centres undefined) | inactive: 0%
17 | CC1CN(C)C(C)CC1Nc1ccccc1 (centres undefined) | inactive: 14%
18 | CCN1CCC(Nc2ccc(F)cc2)CC1 | inactive: 10%
19 | CN(C)c1ccc(C(=O)NCC2(N3CCCCC3)CCCCC2)cc1 | inactive: -5%
20 | CC1CN(CCc2ccccc2)C(C)CC1=O (centres undefined) | inactive: 14%
21 | CCOc1ncccc1C(=O)NCC1(N(C)C)CCCCC1 | inactive: -4%
22 | O=C(NCC1(N2CCCCC2)CCCCC1)c1n[nH]c2ccccc12 | inactive: 8%
23 | CCOc1ncccc1C(=O)NCC1(N2CCCCC2)CCCCC1 | inactive: 7%
24 | NC(=O)C1(Nc2ccccc2)CCN(Cc2ccccc2)CC1 | inactive: 2%
25 | O=C1CCN(CCc2ccccc2)CC1 | inactive: 6%
26 | CN1CCC(Nc2ccc(F)cc2)CC1 | inactive: -8%
27 | O=C(NCC1(N2CCOCC2)CCCCC1)c1cc2ccccc2cc1O | inactive: -5%
28 | CCCN1CCC(Nc2cc(OC)cc(OC)c2)CC1 | inactive: 15%
29 | Cc1c(C(=O)NCC2(N3CCOCC3)CCCCC2)oc2c(Cl)cccc12 | inactive: -1%

From PubChem BioAssay AID485395 (ICCB-Longwood Screening Facility, Harvard Medical School, 2010)
